{"source": "paper PMC9392796", "about": "“A mannose-sensing AraC-type transcriptional activator regulates cell–cell aggregation of Vibrio cholerae” (NPJ Biofilms and Microbiomes, 2022)", "key": {"[1]": {"target": "CRP (UniProt O34015)", "test": "EMSA", "conditions": "0.2 mM cAMP; recombinant protein; probe letters rebuilt from the primers and the genome"}, "[2]": {"target": "ManR (VC1825) (Vibrio cholerae N16961) (UniProt Q9KR22)", "test": "EMSA", "conditions": "recombinant protein, probe letters rebuilt from the primers and the genome"}}, "note": "For at least one entry, the source does not settle the construct or the ends of the probe."}
{"sequence": "ATCAAATATCATATGTAAACCCTCACTTCGTCATCGCACTTTTATTAACGTCAGATATACCCCGAATGCCATTGAGTCTCTTTGAGCAACATCACACTCAAGACAGAATGATACAATAATCCAGTTTTAACACCAATTCTCTAGCACAAACCTCCACCATGAATAACAACAAACATAATATAACTAAATGAAAATTAATGAGCTAAACCTACAATCATTACTTAAAATTGGCCTCACTACCCCAATAGACGCTACGAGATCTAAATCACACCAAACCAATAGAGTTACAATCCTCCAGTGAATGTTTTATTTCTGCACTAATAAGAAAAATAAAAAAATTAAAGAATAACTCTGACATAAAAATAAAATGTACAGAGGTCTCTATGATCAACCAATTGA (double strand) [399-bp manP probe (VC1825-manP intergenic region)]", "values": [{"measurement": "binding result", "setting": "[1]", "value": "binds"}, {"measurement": "binding result", "setting": "[2]; two complexes, 0, 60, 120 ng ManR", "value": "binds"}]}
{"sequence": "CGCAACAATTTTCATGGAAATCCCTCATTGTTATTTTTGCGGCGATAGTAACATAGCGCTTGGCAAATACTCCGTTTTCGGCCAAGACCCAGTTCACAGTTCAAATCGAATGTTACATTAATCCAGTTATTGCATCTTTTGTCCTGTGTCTTGAAAGAGTATCGCTCGTTACTCTAGCCACGCGCGTACGCGAGGCGCATCGGGATGGCAATGCCAATTCAAACAACAGTAAGGTAAAACAATTGTGGATATTACCCA (double strand) [VC1822-VC1823 intergenic probe]", "values": [{"measurement": "binding result", "setting": "[2]; one complex, 0-90 ng ManR", "value": "binds"}]}
{"sequence": "GTCAGATATACCCCGAATGCCATTGAGTCTCTTTGAGCAACATCACACTCAAGACAGAATGATACAATAATCCAGTTTTAACACCAATTCTCTAGCACAA (double strand) [100-bp probe 2]", "values": [{"measurement": "binding result", "setting": "[2]; 120 ng ManR", "value": "binds"}]}
